{"source": "PubChem BioAssay AID504761 (Drosophila RNAi Screening Center, 2011)", "aim": "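Genome-wide fly cell screen for genes dengue virus requires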 (primary screen)", "cells": "D.Mel-2 cells from Drosophila", "reagents": "long dsRNA against Drosophila genes", "challenge": "infection with dengue virus type 2; dose and infection time not stated", "detection": "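Per well on two replicate plates, imaging gave the percent of cells positive for viral envelope protein, ranked by infection, and a nuclear count of cells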", "scale": "infection score: higher = more virus-infected cells", "active means": "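Low infection ranks in the two replicates (chance level up to 0.065) followed by a retest with a 1.5-fold or larger significant decrease, p below 0.05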", "meaning of the calls": "active = confirmed: knock-down lowers infection; inactive = not picked or not confirmed", "note": "In all, the deposit lists about 22,000 reagents; this is an unselected part of those that have a named target and a result. In the full data, 116 (0.52%) were called active. 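Calls depend on retest data that are not deposited; infection was ranked per plate without normalising between plates; the unit of the infection score is not given.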 Entries without a mark were called inactive. Further read-outs or replicates are left out here. The record does not give: the amount of reagent, the time to read-out."}
{"Target gene": "CG13538", "DRSC id": "DRSC04180", "infection score, replicate 1": 11.5}
{"Target gene": "CG7239", "DRSC id": "DRSC23113", "infection score, replicate 1": 1.02}
{"Target gene": "lncRNA:Hsromega", "DRSC id": "DRSC22875", "infection score, replicate 1": 2.22}
{"Target gene": "lncRNA:Hsromega", "DRSC id": "DRSC26039", "infection score, replicate 1": 9.2}
{"Target gene": "eEFSec", "DRSC id": "DRSC04571", "infection score, replicate 1": 3.71}
{"Target gene": "CG6800", "DRSC id": "DRSC16119", "infection score, replicate 1": 4.56}
{"Target gene": "CG14142", "DRSC id": "DRSC10145", "infection score, replicate 1": 4.83}
{"Target gene": "CG14142", "DRSC id": "DRSC26658", "infection score, replicate 1": 5.1}
{"Target gene": "l(3)62Be (retired record)", "DRSC id": "DRSC08231", "infection score, replicate 1": 11.6}
{"Target gene": "CG10462", "DRSC id": "DRSC02058", "infection score, replicate 1": 3.1}
{"Target gene": "CG7054", "DRSC id": "DRSC16185", "infection score, replicate 1": 12.1}
{"Target gene": "CG7054", "DRSC id": "DRSC26659", "infection score, replicate 1": 2.13}
{"Target gene": "CG3939", "DRSC id": "DRSC18498", "infection score, replicate 1": 1}
{"Target gene": "CG11374", "DRSC id": "DRSC00306", "infection score, replicate 1": 3.24}

Already shown: entries from further up.
{"Target gene": "CG7054", "DRSC id": "DRSC26659", "infection score, replicate 1": 2.13}
{"Target gene": "CG3939", "DRSC id": "DRSC18498", "infection score, replicate 1": 1}
